PMC6472032 (Marine Drugs, 2019)

Chains of the proteins cited; added tags and fusions are not shown. Lines headed by an entry give the natural chain unless they say otherwise; changes in a name come on top.
UniProt P02716: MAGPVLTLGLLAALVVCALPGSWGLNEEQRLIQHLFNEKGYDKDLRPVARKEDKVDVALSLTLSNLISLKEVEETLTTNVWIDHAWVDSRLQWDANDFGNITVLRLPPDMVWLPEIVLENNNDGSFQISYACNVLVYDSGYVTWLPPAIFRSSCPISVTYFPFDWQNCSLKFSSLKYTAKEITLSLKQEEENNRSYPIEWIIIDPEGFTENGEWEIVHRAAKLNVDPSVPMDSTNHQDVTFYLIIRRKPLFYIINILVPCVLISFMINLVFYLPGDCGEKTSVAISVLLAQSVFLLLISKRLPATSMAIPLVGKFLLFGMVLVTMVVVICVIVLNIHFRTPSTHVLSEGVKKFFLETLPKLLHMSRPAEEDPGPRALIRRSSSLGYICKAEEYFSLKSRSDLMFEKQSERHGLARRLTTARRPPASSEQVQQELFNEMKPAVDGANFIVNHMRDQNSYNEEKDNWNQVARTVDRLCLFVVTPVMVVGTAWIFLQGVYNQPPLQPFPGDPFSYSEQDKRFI
UniProt P04756: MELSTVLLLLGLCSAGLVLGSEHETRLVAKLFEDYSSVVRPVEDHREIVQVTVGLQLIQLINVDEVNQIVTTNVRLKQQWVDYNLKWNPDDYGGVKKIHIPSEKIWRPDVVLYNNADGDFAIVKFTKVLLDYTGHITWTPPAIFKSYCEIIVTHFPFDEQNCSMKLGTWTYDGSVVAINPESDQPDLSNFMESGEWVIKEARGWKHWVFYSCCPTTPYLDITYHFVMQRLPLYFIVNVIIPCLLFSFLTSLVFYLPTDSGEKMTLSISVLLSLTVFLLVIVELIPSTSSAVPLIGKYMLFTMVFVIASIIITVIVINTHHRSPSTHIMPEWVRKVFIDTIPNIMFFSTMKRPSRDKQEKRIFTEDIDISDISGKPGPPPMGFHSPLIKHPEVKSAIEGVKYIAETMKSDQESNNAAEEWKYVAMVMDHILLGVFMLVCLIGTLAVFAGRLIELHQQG
UniProt P20782: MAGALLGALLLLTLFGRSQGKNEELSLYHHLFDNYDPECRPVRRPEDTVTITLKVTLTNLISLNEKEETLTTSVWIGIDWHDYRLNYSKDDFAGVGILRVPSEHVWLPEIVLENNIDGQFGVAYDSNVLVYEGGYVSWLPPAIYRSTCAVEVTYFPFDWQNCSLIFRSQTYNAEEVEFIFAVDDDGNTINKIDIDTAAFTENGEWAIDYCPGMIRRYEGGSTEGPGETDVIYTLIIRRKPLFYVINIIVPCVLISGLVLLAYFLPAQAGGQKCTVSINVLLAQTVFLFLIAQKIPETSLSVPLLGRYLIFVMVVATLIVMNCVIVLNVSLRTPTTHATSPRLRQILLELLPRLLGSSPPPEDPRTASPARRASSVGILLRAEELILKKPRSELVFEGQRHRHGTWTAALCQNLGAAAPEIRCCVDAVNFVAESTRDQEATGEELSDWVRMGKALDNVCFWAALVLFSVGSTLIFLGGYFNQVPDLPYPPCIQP

Target: mouse α1β1δε nAChR (Mus musculus, UniProt P02716+P04756+P20782)
Experiment: Electrophysiological selectivity assay, mouse α1β1δε nAChR
Conditions: electrophysiological assays, data not shown

| SMILES | activity against mouse α1β1δε nAChR |
| --- | --- |
| N=C(N)NCCC[C@@H](NC(=O)[C@@H]1CSSC[C@@H]2NC(=O)[C@@H](NC(=O)CN)CSSC[C@H](NC(=O)[C@@H](CCCNC(=N)N)NC(=O)[C@@H]3CCCN3C(=O)[C@H](CC(=O)O)NC(=O)[C@H](CO)NC2=O)C(=O)N[C@H](CCCNC(=N)N)C(=O)N[C@@H](Cc2ccc(O)cc2)C(=O)N[C@H](CCCNC(=N)N)C(=O)N1)C(=O)O [Compound 14] | inactive |
| N=C(N)NCCC[C@H]1NC(=O)[C@H](Cc2ccc(O)cc2)NC(=O)[C@@H](CCCNC(=N)N)NC(=O)[C@@H]2CSSC[C@H](NC(=O)CN)C(=O)N[C@@H](CSSC[C@@H](C(N)=O)NC1=O)C(=O)N[C@@H](CO)C(=O)N[C@@H](CC(=O)O)C(=O)N1CCC[C@H]1C(=O)N[C@H](CCCNC(=N)N)C(=O)N2 [Compound 15] | inactive |
| N=C(N)NCCC[C@@H]1NC(=O)[C@@H]2CSSC[C@H](NC(=O)CN)C(=O)N[C@@H](CSSC[C@@H](C(=O)N[C@H](CCCNC(=N)N)C(=O)O)NC(=O)[C@H](CCCNC(=N)N)NC(=O)[C@H](Cc3ccc(O)cc3)NC1=O)C(=O)N[C@@H](CO)C(=O)N[C@@H](CC(=O)O)C(=O)N1CCC[C@H]1C(=O)N[C@@H](CCCNC(=N)N)C(=O)N2 [Compound 13] | inactive |
